The results in this text go back to US20240109955A1 (published 2024).

B1: A23-58.1HC/58.1LC_93VGLTG (antibody, V domains shown)
VH: QMQLVQSGPEVKKPGTSVKVSCKASGFTFTSSAVQWVRQRQRLEWIGWIVVGSGNTNYAQKFQERVTITRDMSTSTAYMELSSLRSEDTAVYYCAAPNCSNVVCYDGFDIWGQGTMVTVSS
VL: EIVLTQSPGTLSLSPGERATLSCRASQSVSSSYLAWYQQKPGQAPRLLIYSASSRATGIPDRFSGSGSGTDFTLTISRLEPEDFAVYFCQQYVGLTGWTFGQGTKVEIK
B2: MX831 (bispecific antibody)
chain: DIQMTQSPSSVSASVGDRVIITCRASQGISSWLAWYQQKPGKAPKVLIYDASSLQSGVPSRFSGSGYGTDFTLTISSLQPEDSATYYCQQAKSFPITFGQGTRLEIKGGSSGEIVLTQSPGTLSLSPGERATLSCRASQSVSSSYLAWYQQKPGQAPRLLIYSASSRATGIPDRFSGSGSGTDFTLTISRLEPEDFAVYFCQQYGGLTGWTFGQGTKVEIKGGGGSGGSGSGGGGSASGSGQMQLVQSGPEVKKPGTSVKVSCKASGFTFTSSAVQWVRQRQRLEWIGWIVVGSGNTNYAQKFQERVTITRDMSTSTAYMELSSLRSEDTAVYYCAAPNCSNVVCYDGFDIWGQGTMVTVSSGGSSGQVQLVESGGGVVQPGRSLRLSCAASGFTFSSYAFHWVRQAPGKGLEWVAVISYDGSNQYYADSVKGRFTISRDNSKNTLYLQMNSLRADDTAVYYCARDLAIAVAGTWHYYNGMDVWGQGTTVTVSSASGGSGDKTHTCPPCPAPELLGGPSVFLFPPKPKDTLMISRTPEVTCVVVDVSHEDPEVKFNWYVDGVEVHNAKTKPREEQYNSYVVSVLTVLHQDWLNGKEYKCKVSNKALPAPIEKTISKAKGQPREPQVYTLPPSRDELTKNQVSLTCLVKGFYPSDIAVEWESNGQPENNYKTTPPVLDSDGSFFKKLTVDKSRWQQGNVFSCSVLHEALHSHYTQKSLSLSPG
B3: MX830 + 831 (other)
chain 1: QTVVTQEPSFSVSPGGTVTLTCGLSSGSVSTAYFPSWYQQTPGQAPRTLIYGTNTRSSGVPDRFSGSILGNKAALTITGAQADDESDYYCVLYMGRGIVVFGGGTKLTVLGGSSGEIVLTQSPGTLSLSPGERATLSCRASQSVSSSYLAWYQQKPGQAPRLLIYSASSRATGIPDRFSGSGSGTDFTLTISRLEPEDFAVYFCQQYGGLTGWTFGQGTKVEIKGGGGSGGSGSGGGGSASGSGQMQLVQSGPEVKKPGTSVKVSCKASGFTFTSSAVQWVRQRQRLEWIGWIVVGSGNTNYAQKFQERVTITRDMSTSTAYMELSSLRSEDTAVYYCAAPNCSNVVCYDGFDIWGQGTMVTVSSGGSSGQVQLVESGGGVVQPGRSLRLSCAASGFTLSSYGMHWVRQAPGKGLEWVAVISYDGSNKYYVDSVKGRFTISRDNSKNTLYLQMNSLRAEDTAVYYCRWAYWELLPDYYYGMDVWGQGTTVTVSSASGGSGDKTHTCPPCPAPELLGGPSVFLFPPKPKDTLMISRTPEVTCVVVDVSHEDPEVKFNWYVDGVEVHNAKTKPREEQYNSYVVSVLTVLHQDWLNGKEYKCKVSNKALPAPIEKTISKAKGQPREPQVYTLPPSRDELTKNQVSLTCLVKGFYPSDIAVEWESNGQPENNYKTTPPVLDSDGSFFKKLTVDKSRWQQGNVFSCSVLHEALHSHYTQKSLSLSPG
chain 2: B2 chain
B4: MX1042 (bispecific antibody)
chain: DTVMTQSPLSLPVTPGEPASISCRSSQSLLNSNGYNYLDWYVQKPGQSPQLLIYLGSNRASGVPDRFSGSGSGTDFTLKISRVEAEDVGVYYCMQPLQTPLFTFGPGTKVEIKGGSSGEIVLTQSPGTLSLSPGETATLSCRASQSFSSDLAWYQQKPGQAPRLLIYGASSRATGIPDRFSGSGSGTDFTLTISRLEPADFAVYYCQQYGSSPPVTFGGGTKVEIKGGGGSGGSGSGGGGSASGSGEVQLVESGGGLIQPGGSLRLSCAASGVIVSYNYMNWVRQAPGKGLEWVSVIYSGGSTFYADSVRGRFTISRDNSKNTLYLQMNSLRAEDTAVYYCARDLGPAGAFDIWGLGTMVTVSSGGSSGQVTLRESGPALVKPTQTLTLTCTFSGFSLSTRGVCVSWIRQPPGKALEWLAFIDWDDDKYYNTSLKTRLTISKDTSKNQVVLTMTNVHPVDTATYYCARISSHHGSSWCTTFDYWGQGALVTVSAASGGSGDKTHTCPPCPAPELLGGPSVFLFPPKPKDTLMISRTPEVTCVVVDVSHEDPEVKFNWYVDGVEVHNAKTKPREEQYNSYVVSVLTVLHQDWLNGKEYKCKVSNKALPAPIEKTISKAKGQPREPQVYTLPPSRDELTKNQVSLTCLVKGFYPSDIAVEWESNGQPENNYKTTPPVLDSDGSFFKKLTVDKSRWQQGNVFSCSVLHEALHSHYTQKSLSLSPG
B5: MX1043 (bispecific antibody)
chain: EIVLTQSPGTLSLSPGETATLSCRASQSFSSDLAWYQQKPGQAPRLLIYGASSRATGIPDRFSGSGSGTDFTLTISRLEPADFAVYYCQQYGSSPPVTFGGGTKVEIKGGSSGQTVVTQEPSFSVSPGGTVTLTCGLSSGSVSTAYFPSWYQQTPGQAPRTLIYGTNTRSSGVPDRFSGSILGNKAALTITGAQADDESDYYCVLYMGRGIVVFGGGTKLTVLGGGGSGGSGSGGGGSASGSGQVQLVESGGGVVQPGRSLRLSCAASGFTLSSYGMHWVRQAPGKGLEWVAVISYDGSNKYYVDSVKGRFTISRDNSKNTLYLQMNSLRAEDTAVYYCRWAYWELLPDYYYGMDVWGQGTTVTVSSGGSSGEVQLVESGGGLIQPGGSLRLSCAASGVIVSYNYMNWVRQAPGKGLEWVSVIYSGGSTFYADSVRGRFTISRDNSKNTLYLQMNSLRAEDTAVYYCARDLGPAGAFDIWGLGTMVTVSSASGGSGDKTHTCPPCPAPELLGGPSVFLFPPKPKDTLMISRTPEVTCVVVDVSHEDPEVKFNWYVDGVEVHNAKTKPREEQYNSYVVSVLTVLHQDWLNGKEYKCKVSNKALPAPIEKTISKAKGQPREPQVYTLPPSRDELTKNQVSLTCLVKGFYPSDIAVEWESNGQPENNYKTTPPVLDSDGSFFKKLTVDKSRWQQGNVFSCSVLHEALHSHYTQKSLSLSPG
B6: MX1069 (other)
chain 1: QTVVTQEPSFSVSPGGTVTLTCGLSSGSVSTAYFPSWYQQTPGQAPRTLIYGTNTRSSGVPDRFSGSILGNKAALTITGAQADDESDYYCVLYMGRGIVVFGGGTKLTVLGGSSGEIVLTQSPGTLSLSPGETATLSCRASQSFSSDLAWYQQKPGQAPRLLIYGASSRATGIPDRFSGSGSGTDFTLTISRLEPADFAVYYCQQYGSSPPVTFGGGTKVEIKGGGGSGGSGSGGGGSASGSGEVQLVESGGGLIQPGGSLRLSCAASGVIVSYNYMNWVRQAPGKGLEWVSVIYSGGSTFYADSVRGRFTISRDNSKNTLYLQMNSLRAEDTAVYYCARDLGPAGAFDIWGLGTMVTVSSGGSSGQVQLVESGGGVVQPGRSLRLSCAASGFTLSSYGMHWVRQAPGKGLEWVAVISYDGSNKYYVDSVKGRFTISRDNSKNTLYLQMNSLRAEDTAVYYCRWAYWELLPDYYYGMDVWGQGTTVTVSSASGGSGDKTHTCPPCPAPELLGGPSVFLFPPKPKDTLMISRTPEVTCVVVDVSHEDPEVKFNWYVDGVEVHNAKTKPREEQYNSYVVSVLTVLHQDWLNGKEYKCKVSNKALPAPIEKTISKAKGQPREPQVYTLPPCRDELTKNQVSLWCLVKGFYPSDIAVEWESNGQPENNYKTTPPVLDSDGSFFKKLTVDKSRWQQGNVFSCSVLHEALHSHYTQKSLSLSPG
chain 2: EIVLTQSPGTLSLSPGETATLSCRASQSFSSDLAWYQQKPGQAPRLLIYGASSRATGIPDRFSGSGSGTDFTLTISRLEPADFAVYYCQQYGSSPPVTFGGGTKVEIKGGSSGDTVMTQSPLSLPVTPGEPASISCRSSQSLLNSNGYNYLDWYVQKPGQSPQLLIYLGSNRASGVPDRFSGSGSGTDFTLKISRVEAEDVGVYYCMQPLQTPLFTFGPGTKVEIKGGGGSGGSGSGGGGSASGSGQVTLRESGPALVKPTQTLTLTCTFSGFSLSTRGVCVSWIRQPPGKALEWLAFIDWDDDKYYNTSLKTRLTISKDTSKNQVVLTMTNVHPVDTATYYCARISSHHGSSWCTTFDYWGQGALVTVSAGGSSGEVQLVESGGGLIQPGGSLRLSCAASGVIVSYNYMNWVRQAPGKGLEWVSVIYSGGSTFYADSVRGRFTISRDNSKNTLYLQMNSLRAEDTAVYYCARDLGPAGAFDIWGLGTMVTVSSASGGSGDKTHTCPPCPAPELLGGPSVFLFPPKPKDTLMISRTPEVTCVVVDVSHEDPEVKFNWYVDGVEVHNAKTKPREEQYNSYVVSVLTVLHQDWLNGKEYKCKVSNKALPAPIEKTISKAKGQPREPQVCTLPPSRDELTKNQVSLSCAVKGFYPSDIAVEWESNGQPENNYKTTPPVLDSDGSFFLVSKLTVDKSRWQQGNVFSCSVLHEALHSHYTQKSLSLSPG

The target of one assay is SARS-CoV-2 Omicron BA.1 spike protein (SARS-CoV-2, UniProt P0DTC2 14-1273). In words: cell-based or functional assay.
For the molecule B1, the “IC50, pseudovirus neutralization” value is 1 nM and the “IC80, pseudovirus neutralization” value amounted to 9 nM.

For B2, the “IC50, pseudovirus neutralization” value turned out to be 7 nM and the “IC80, pseudovirus neutralization” value amounted to 25 nM.

On to B3, for which the “IC50, pseudovirus neutralization” value was 2 nM and the “IC80, pseudovirus neutralization” value was found to be 3 nM.

The next assay addresses SARS-CoV-2 Omicron BA.4/5 spike protein (F486V) (SARS-CoV-2, UniProt P0DTC2 14-1273). In words: cell-based or functional assay.
Regarding B1, the “IC50, pseudovirus neutralization” value was 4 nM and the “IC80, pseudovirus neutralization” value stood at 21 nM.

Consider B2, for which the “IC50, pseudovirus neutralization” value was 2 nM and the “IC80, pseudovirus neutralization” value amounted to 4 nM.

Turning to B3, the “IC50, pseudovirus neutralization” value came out at 2 nM and the “IC80, pseudovirus neutralization” value amounted to 4 nM.

The next assay deals with SARS-CoV-2 spike protein, Omicron sublineage XBB (SARS-CoV-2, UniProt P0DTC2 14-1273). In words: cell-based or functional assay.
As to B4, the “IC50, pseudovirus neutralization” value worked out at 7.55 nM and the “IC80, pseudovirus neutralization” value was determined as 16.5 nM.

On to B5, for which the “IC50, pseudovirus neutralization” value worked out at 2.17 nM and the “IC80, pseudovirus neutralization” value was determined as 7.05 nM.

On to B6, for which the “IC50, pseudovirus neutralization” value was 2.48 nM and the “IC80, pseudovirus neutralization” value was 5.2 nM.

The next assay addresses SARS-CoV-2 spike protein, Omicron sublineage XBB1.5 (SARS-CoV-2, UniProt P0DTC2 14-1273). In words: cell-based or functional assay.
For the molecule B4, the “IC50, pseudovirus neutralization” value was 41.8 nM and the “IC80, pseudovirus neutralization” value was 81.5 nM.

For B5, the “IC50, pseudovirus neutralization” value was found to be 68.7 nM and the “IC80, pseudovirus neutralization” value came out at 155 nM.

B6: the “IC50, pseudovirus neutralization” value is 34.8 nM and the “IC80, pseudovirus neutralization” value was 65.5 nM.
